The test system of this data set is F344 rat liver. To be noted: in vivo.

aflatoxin B1 [AFB1, reference compound]: the “induction of preneoplastic GST-P positive foci in liver (in words)” value is “elicited the expected preneoplastic foci in the livers of each rat tested”.

The values are drawn from article PMC3358452 (Chemical Research in Toxicology, 2012).
